Results as given in the supplement of paper PMC9931576.
Human monoclonal antibodies against the spike receptor-binding domain (heavy:light variable regions). IC50 against pseudoviruses bearing the spike of naturally observed variants; lower = stronger; >10 µg/ml means not reached at the top dose. No active / inactive call. The stated detection limit is 0.0005 µg/ml; values near or below 0.001 µg/ml lie at the floor of the assay.

B1: BD56-456 (protein)
chain 1: QVQLVQSGAEVKKPGASVKLSCEASGYTFTSYTLHWVRQAPGQRLEWMGWINAANGNTKYSQKFQGRVTITRDTSASTVYMYLSSLRSEDSAVYYCATAKVRGDIGGGWYFYYYGMDVWGQGTTVTVSS
chain 2: DIVMTQSPLSLPVTPGEPASISCRSNESLLHSNGYNYLDWYLQKPGQSPQLLIYLGSNRASGVPDRFSGSGSDTDFTLKISRVEAEDVGVYYCMHALQSLPWTFGQGTKVEIK
B2: BD56-441 (protein)
chain 1: QMQLVQSGPEVKKPGTSVKVSCKSSGFTFSISAVQWVRQARGQRLEWMGWIVVGSGNTHYAQEFQERVTFTRDMATGSVYIELSSLRSEDTAVYYCAAPNCNRTNCYDAFDLWGQGTVVTVSS
chain 2: EIVLTQSPGTLSLSPGERATLSCRASQSVRSSYLAWYQQKPGQAPRLLIYGASNRATGIPDKFSGSGSGTFFTLTISRLEPEDFAVYYCQHYGGSQFTFGPGTKVDI
B3: BD56-442 (protein)
chain 1: EVQLVESGGGLVQPGRSLTLACAASEFTFDDYAMHWVRQAPGKGLEWVSGISWNGGIIGYADSVKGRFIISRDNAKNSLYLHMRSLRPEDTALYYCAKALGFGELSEYSFDSWGQGTLVTVSS
chain 2: QSALTQPASVSGSPGQSITISCTGTSSDIASYNYVSWYQQHPGKAPKLMIYDVSKRPSGVSSRFSGSKSGITASLTISGLQAEDEADYFCSSYTSSSTLVFGGGTKLTVL
B4: BD56-446 (protein)
chain 1: EVQLVESGGGLIQPGGSLRLSCAASGFIVSSNYMSWVRQAPGKGLEWVSLIYPGGSTFYADSVKGRFTISRDNSKNTLYLQMNSLRAEDTAMYYCARVLPLHGDYFDYWGQGTLVTVSS
chain 2: DIQMTQSPSSLSASVGDRVTITCRASQSISDYLNWYQQKPGKAPNLLIYGASSLQSGVPSRFSGSGSGTDFTLTISSLQPEDFATYFCQQSYSSPTFGPGTKVDLK
B5: BD56-437 (protein)
chain 1: QVQLQESGPGLVKPSETLSLTCTVSGASISSYSWRWIRQPPGKGLEWIGNIYDSGSTNYNPSLKSRVTISVDTSKNQFYLKVTSVTAADTAVYYCARVADYGGPYGYYGMDVWGQGTTVTVSS
chain 2: DIQMTQSPSSVSASVGDRVTISCRASQSISSWLVWYQQKPGKAPKLLIYAASSLQSGVPSRFSGSGSGTDFTLTISSLQPEDSAAYYCQQSNSFPLTFGGGTKVETK
B6: BD56-458 (protein)
chain 1: QVQLVESGGGVVQPGRSLRLSCAASGFTFNSYAMYWVRQAPGRGLEWVAVISYDGDKKYYADSVKGRFTISRDNSKNTVFLQMDRLRGGDTSLYYCARGTDYGDYIPWFDPWGQGTLVTVAS
chain 2: QSALTQPASVSGSPGQSITISCTGTSSDIGGYNFVSWYQQYPGKAPKLVIHNVSHRPSGVSNRFSGSKSGNTASLTLSGLLAEDEADYYCSSYTATNTVLFGGGTKLTVL
B7: BD56-438 (protein)
chain 1: QVQLVESGGGVVQPGRSLRLSCAASGFTFRSHAMHWVRQAPGKGLECVAVIWNDESKTNYVDSVKGRFTISRDNSKNILYLQMNSLRAEDTAMYYCAREGISIGVGGDDAFDIWGQGTMVTVSS
chain 2: DIQVTQSPSSLSASVGDRVTITCRASQSISIFLNWYQQKPGKAPNLLIYGASSLQSGVPSRFSGRGSGTDFTLTISSLQPEDFATYYCQQSYSSPYTFGQGTKLEIK

Legend:
Test in all cases: pseudovirus neutralization IC50; higher = weaker neutralization
[1] = biological target: SARS-CoV-2 Omicron BA.1 spike pseudovirus
Procedure: (§1)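 Single-round VSV luciferase pseudovirus mixed with antibody dilutions for 1 h and put on Huh-7 cells for about a day; IC50 from the dose curve.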

[2] = biological target: SARS-CoV-2 Omicron BA.2 spike pseudovirus
Procedure: as §1

[3] = biological target: SARS-CoV-2 Omicron BA.2.75 spike pseudovirus
Procedure: as §1

[4] = biological target: SARS-CoV-2 Omicron BA.5 spike pseudovirus
Procedure: as §1

[5] = biological target: SARS-CoV-2 Omicron BQ.1.1 spike pseudovirus
Procedure: as §1

[6] = biological target: SARS-CoV-2 Omicron XBB spike pseudovirus
Procedure: as §1

[7] = biological target: SARS-CoV-2 early D614G spike pseudovirus
Procedure: as §1

| Binder | pseudovirus neutralization IC50 [1] | pseudovirus neutralization IC50 [2] | pseudovirus neutralization IC50 [3] | pseudovirus neutralization IC50 [4] | pseudovirus neutralization IC50 [5] | pseudovirus neutralization IC50 [6] | pseudovirus neutralization IC50 [7] |
| --- | --- | --- | --- | --- | --- | --- | --- |
| B1 | 0.041 µg/mL | 0.0116 µg/mL | 0.037 µg/mL | > 10 µg/mL | > 10 µg/mL | > 10 µg/mL | 0.00375 µg/mL |
| B2 | 0.00647 µg/mL | 0.00872 µg/mL | 0.00251 µg/mL | 1.24 µg/mL | – | – | 0.00291 µg/mL |
| B3 | 0.0483 µg/mL | 0.0368 µg/mL | 0.0348 µg/mL | > 10 µg/mL | > 10 µg/mL | 3.24 µg/mL | 0.0297 µg/mL |
| B4 | 0.0115 µg/mL | 0.0083 µg/mL | > 10 µg/mL | 0.118 µg/mL | > 10 µg/mL | > 10 µg/mL | 0.0123 µg/mL |
| B5 | > 10 µg/mL | > 10 µg/mL | > 10 µg/mL | > 10 µg/mL | > 10 µg/mL | > 10 µg/mL | 0.00307 µg/mL |
| B6 | 0.546 µg/mL | 0.00474 µg/mL | 0.326 µg/mL | 0.00463 µg/mL | > 10 µg/mL | > 10 µg/mL | 0.001 µg/mL |
| B7 | 0.00593 µg/mL | 0.00484 µg/mL | 0.00618 µg/mL | > 10 µg/mL | > 10 µg/mL | > 10 µg/mL | 0.00203 µg/mL |
